## Single amino acid changes in Zika NS2B-NS3 and viral growth

The scanned region of Zika virus MR766 is shown below (positions 1-308): NS2B is 2-131, NS3 begins at position 132.
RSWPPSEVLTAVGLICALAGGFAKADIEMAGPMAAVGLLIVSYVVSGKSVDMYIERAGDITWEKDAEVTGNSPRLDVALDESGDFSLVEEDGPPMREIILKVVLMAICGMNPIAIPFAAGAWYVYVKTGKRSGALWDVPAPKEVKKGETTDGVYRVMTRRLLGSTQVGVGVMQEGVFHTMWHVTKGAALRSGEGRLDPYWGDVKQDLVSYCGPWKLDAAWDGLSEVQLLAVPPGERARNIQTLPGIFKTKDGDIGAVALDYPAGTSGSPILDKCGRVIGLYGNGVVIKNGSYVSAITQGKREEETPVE

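Pools of virus carrying all single amino acid changes were selected for growth in Huh-7.5 cells. Sequencing of three replicate libraries (two for positions 207-308) was averaged into one effect per change. The study looked for pockets that tolerate few changes, as a guide for inhibitor design.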

The number is log2 of the effect relative to wild type; negative values mean reduced growth, higher values better tolerance. A change reads original residue, position, new residue. This list holds changes to histidine only. Position 1 still belongs to NS2A. In the paper, -1 or higher counts as tolerated.

V231H gave -3.42.
P232H gave -6.09.
P233H gave -5.91.
G234H gave -1.08.
E235H gave -1.69.
R236H gave 1.58.
A237H gave -0.62.
R238H gave -0.06.
N239H gave -2.10.
I240H gave -6.25.
Q241H gave -7.11.
T242H gave -5.27.
L243H gave -1.71.
P244H gave -5.77.
G245H gave -5.18.
I246H gave -4.71.
F247H gave -5.60.
K248H gave 0.72.
T249H gave -5.79.
K250H gave -5.16.
D251H gave -3.19.
G252H gave -4.61.
D253H gave -5.41.
I254H gave -6.12.
G255H gave -6.35.
A256H gave -5.96.
V257H gave -4.98.
A258H gave -4.97.
L259H gave -5.59.
D260H gave -4.09.
Y261H gave -4.51.
P262H gave -5.91.
A263H gave -4.94.
G264H gave -3.97.
T265H gave -3.76.
S266H gave -4.81.
G267H gave -5.66.
S268H gave -5.19.
P269H gave -4.89.
I270H gave -3.10.
L271H gave -4.71.
D272H gave -3.77.
K273H gave -1.34.
C274H gave -1.07.
G275H gave -1.21.
R276H gave -1.77.
V277H gave -3.91.
I278H gave -4.80.
G279H gave -4.52.
L280H gave -3.98.
Y281H gave -5.14.

The last 4 entries again:

* I278H = -4.80
* G279H = -4.52
* L280H = -3.98
* Y281H = -5.14

Values above 0 are not proof of better growth: six high scorers were tested one by one, five grew less well than wild type and one about as well. Positions 1-103, 104-206 and 207-308 were made and measured as separate libraries.

Values reported by Ni et al. 2025 (doi:10.1038/s41467-025-63602-z).